Pooled drug test results. Numbers come from NIAID ChemDB, via PubChem.

Shared fields: whole-cell or culture tests; organism: Mycobacterium tuberculosis

MIC bound: limit read from a one-dose screen. Percent inhibition refers to the dose given; in toxicity tests it is the harm to the cells. Blank or dashed fields: not listed here. MIC50, MIC90 and the like: level of inhibition, or share of isolates inhibited. Lines come from different laboratories, so protocols vary. ECn: concentration that inhibits the pathogen or its effect by n%.

compound | mutations | dose | cell line | strain or isolate | read-out | read by | value
O=C(N=Nc1c(O)n(Cc2ccccc2)c2ccccc12)c1ccncc1 |  |  |  | Human resistant isolate | MIC |  | 3.5 µg/mL
CO[C@H]1/C=C/O[C@@]2(C)Oc3c(C)c(O)c4c(O)c(c(/C=N/N5CCN(C)CC5)c(O)c4c3C2=O)NC(=O)/C(C)=C\C=C\[C@H](C)[C@H](O)[C@@H](C)[C@@H](O)[C@@H](C)[C@H](OC(C)=O)[C@@H]1C |  |  |  | 20 strains | MIC90 |  | 2 µg/mL
C[C@H]1COc2c(N3C[C@@H]4CCCN[C@@H]4C3)c(F)cc3c(=O)c(C(=O)O)cn1c23 |  |  |  | Rifampicin-sensitive (7 strains pooled) | Mean MIC |  | 0.2 µg/mL
CCOC(=O)c1ccc(N2CCN(CCn3c(-c4ccc(O)cc4O)nc4cc(C(=O)OCC)ccc43)CC2)c(N)c1 | Isoniazid-resistant |  |  | INHR-MTB | MIC | broth dilution | 26.12 µM
CCOC(=O)c1ccc(NC(=O)C(CC(=O)Nc2ccc(Cl)cc2)C(C)=O)cc1 |  | 30 µg/mL |  | H37Rv | inhibition |  | 0%
CCOC(=O)c1ccc(N2CCN(CCn3c(-c4ccc(C)cc4)nc4cc(C(=O)OCC)ccc43)CC2)c(N)c1 |  |  |  | H37Rv | MIC | resazurin | 6.195 µM
COc1cc2c(cc1OC)C1CC3(CCN1CC2)CC(=O)NC3=O |  |  |  | H37Rv | MIC bound | BACTEC | >12.5 µg/mL
C[C@H]1COc2c(N3C[C@@H](N)C4(CC4)C3)c(F)cc3c(=O)c(C(=O)O)cn1c23 |  |  |  | Rifampicin-sensitive (7 strains pooled) | Mean MIC |  | 1 µg/mL
CCOC(=O)c1ccc(NC(=O)CC(C(C)=O)C(=O)Nc2ccc(C(=O)OCC)cc2)cc1 |  | 30 µg/mL |  | H37Rv | inhibition |  | 0%
COC(=O)c1c(C(=O)OC)c2c(Br)cc3ccccc3n2c1C(=O)c1ccc(C#N)cc1 | XDR |  |  |  | MIC | resazurin | 16 µg/mL
COc1ccccc1-n1c(S[Si](C)(C)C)nc2ccccc2c1=O |  |  |  | H37Rv | MIC |  | ≤10 µg/mL
Nc1cccc2c1C(=O)c1ccccc1C2=O |  | 12.5 µg/mL |  | H37Rv | inhibition | BACTEC | 7%
CC1(C)S[C@@H]2[C@H](NC(=O)[C@H](N)c3ccc(O)cc3)C(=O)N2[C@H]1C(=O)O |  |  |  | 27 strains | MIC90 |  | >32 µg/mL
Nc1ccc(-n2cc(C(=O)O)c(=O)c3ccc(N4CCOCC4)cc32)c(F)c1 |  | 6.25 µg/mL |  | H37Rv | inhibition | BACTEC | 0%
CS/C(N)=N\N=C\c1cccnc1 |  |  |  | H37Rv (ATCC 27294) | MIC |  | >100 µg/mL
Cc1c(CN2CCSCC2)cc(-c2ccc(F)cc2)n1-c1ccccc1F |  |  |  | H37Rv | MIC |  | 2 µg/mL
C/C(CCn1[nH]c(=O)ccc1=O)=N\NC(=O)C(=O)NN |  | 12.5 µg/mL |  | H37Rv | inhibition | BACTEC | 11%
CO[C@H]1/C=C/O[C@@]2(C)Oc3c(C)c(O)c4c(O)c(c(/C=N/N5CCN(C)CC5)c(O)c4c3C2=O)NC(=O)/C(C)=C\C=C\[C@H](C)[C@H](O)[C@@H](C)[C@@H](O)[C@@H](C)[C@H](OC(C)=O)[C@@H]1C |  |  |  | R37RV | MIC |  | 0.016 µg/mL
CN(C)N=Nc1ccccc1C(=O)NNC(=O)CC#N |  | 12.5 µg/mL |  | H37Rv | inhibition | BACTEC | 1%
NC(=O)c1cnccn1 |  |  |  | RCMB 010126 | MIC |  | 3.21 µg/mL
CC[C@H]1OC(=O)[C@H](C)[C@@H](O[C@H]2C[C@@](C)(OC)[C@@H](O)[C@H](C)O2)[C@H](C)[C@@H](O[C@@H]2O[C@H](C)C[C@H](N(C)C)[C@H]2O)[C@](C)(OC)C[C@@H](C)C(=O)[C@H](C)[C@@H](O)[C@]1(C)O |  |  |  | Kurono | MBC |  | >128 µg/mL
CCCCCCCCCCCCCCN(CCO)C[C@@H]1O[C@@H]2OC(C)(C)O[C@@H]2[C@H]2OC(C)(C)O[C@H]21 |  |  |  | H37Rv | MIC |  | 6.25 µg/mL
NC1CCOC1=O |  | 12.5 µg/mL |  | H37Rv | inhibition | BACTEC | 19%
NC(=O)c1cnccn1 |  |  |  | 20 strains | MIC50 |  | 50 µg/mL
CC(=N\NC(=O)c1ccc([N+](=O)[O-])o1)/C(Cl)=N/Nc1ccc(S(=O)(=O)Nc2nccs2)cc1 |  |  |  | RCMB 010126 | MIC |  | 7.81 µg/mL
Cc1cc2c(cc1C)[n+]([O-])c1c(=O)[nH]c(=O)nc-1n2CC(O)C(O)C(O)CO |  | 12.5 µg/mL |  | H37Rv | inhibition | BACTEC | 29%
CCCCCCCCCCCCc1cn(Cc2cn([C@H]3C[C@H](O)[C@@H](CO)O3)c(=O)[nH]c2=O)nn1 |  |  | VERO Cell line | MS-115 | MIC99 |  | 10 µg/mL
C[C@H]1Oc2nc([N+](=O)[O-])cn2C[C@@H]1OCc1ccc(OC(F)(F)F)cc1 |  |  |  | H37Rv-T3 | MIC | absorbance | >100 µM
CC(=O)C(CC(=O)Nc1cccc(Cl)c1)C(=O)Nc1cccc2ccccc12 |  | 5 µg/mL |  | H37Rv | inhibition |  | 0%
CC1(C)N=C(N)N=C(N)N1c1ccc(CCCC(=O)Nc2ccc(S(=O)(=O)F)cc2)c(Cl)c1.CCS(=O)(=O)O |  |  |  | H37Rv | MIC | resazurin | 3.13 µg/mL
O=[N+]([O-])c1ccc(C2=CC(c3cccc(Oc4ccccc4)c3)NC(=S)N2)cc1 |  |  |  | H37Rv | MIC | resazurin | 0.68 µg/mL
OC1c2ccccc2OC2(N3CCCC3)CCCCC12 |  | 12.5 µg/mL |  | H37Rv | inhibition | BACTEC | 22%
CCCCCCCCCCCCOCc1cn([C@H]2C[C@H](O)[C@@H](CO)O2)c(=O)[nH]c1=O |  |  | VERO Cell line | MS-115 | MIC99 |  | 50 µg/mL
CC1CN(c2cc3c(cc2F)c(=O)c(C(=O)O)cn3-c2ccc([N+](=O)[O-])cc2F)CC(C)N1 |  | 6.25 µg/mL |  | H37Rv | inhibition | BACTEC | 98%
NNC(=O)c1ccncc1 |  |  |  | 20 strains | MIC50 |  | 0.025 µg/mL
CCCCCCCCCCCCN(CCO)C[C@@H]1O[C@@H]2OC(C)(C)O[C@@H]2[C@H]2OC(C)(C)O[C@H]21 |  |  |  | H37Rv | MIC |  | 3.12 µg/mL
Cc1c(CN2CCN(C)CC2)cc(-c2ccccc2)n1-c1cccc2ccccc12 |  |  |  |  | MIC |  | >16 µg/mL
O=C(O)c1cn(-c2ccc([N+](=O)[O-])cc2F)c2cc(N3CCN(Cc4ccc5cccc(O)c5n4)CC3)c(F)cc2c1=O |  | 6.25 µg/mL |  | H37Rv | inhibition | BACTEC | 47%
CC(=O)c1c(O)c(C)c(O)c2c1OC1=CC(=O)C(C(C)=O)C(=O)[C@]12C |  | 128 µg/mL |  | H37Rv | inhibition | BACTEC | 100%
CCOc1ccc(NC(=O)CC(C(C)=O)C(=O)Nc2cccc3ccccc23)cc1 |  | 5 µg/mL |  | H37Rv | inhibition |  | 0%
CC(=O)Nn1cnc(C(C#N)C=N)c1N |  | 12.5 µg/mL |  | H37Rv | inhibition | BACTEC | 6%
Cc1ccc(S(=O)(=O)C/C(=N/NC(=O)c2ccc([N+](=O)[O-])o2)c2ccc([N+](=O)[O-])cc2)cc1 |  |  |  | RCMB 010126 | MIC |  | 125 µg/mL
CCCCCCCCCCCCc1cn(Cc2cn([C@H]3C[C@H](O)[C@@H](CO)O3)c(=O)nc2N)nn1 |  |  | VERO Cell line | MS-115 | MIC99 |  | 10 µg/mL
O=C1N/C(=C/c2ccccc2)OC1=O |  | 12.5 µg/mL |  | H37Rv | inhibition | BACTEC | -13%
Cc1ccc(C2=CC(c3cccc(Oc4ccccc4)c3)N=C(N)N2)cc1 |  | 6.25 µg/mL |  | H37Rv | inhibition | resazurin | 71%
CCCCS/C(N)=N\N=C\c1ccnnc1 |  |  |  | H37Rv (ATCC 27294) | MIC |  | 25 µg/mL
O=C(C=Cc1cccc(Oc2ccccc2)c1)c1ccc([N+](=O)[O-])cc1 |  |  |  | H37Rv | MIC | resazurin | 0.75 µg/mL
Nc1ccc(-n2cc(C(=O)O)c(=O)c3cc(F)c(N4CCNCC4)cc32)c(F)c1 |  | 6.25 µg/mL |  | H37Rv | inhibition | BACTEC | 100%
CCC(O)C#CC#C/C=C\C(=O)OC |  |  |  | H37Rv | MIC |  | 25 µg/mL
COc1ccc(C2=CC(c3cccc(Oc4ccccc4)c3)N=C(N)N2)cc1 |  |  |  | H37Rv | MIC | resazurin | 1.25 µg/mL
O=C(O)c1cc(-c2ccncc2)nc2ccccc12 |  |  |  | H37Rv | MIC bound | resazurin | >6.25 µg/mL
CCOC(=O)c1ccc(N2CCN(CCn3c(-c4ccccc4)nc4cc(C(=O)OCC)ccc43)CC2)c(N)c1 |  |  |  | H37Rv | MIC | resazurin | 6.219 µM
CC(=O)Nc1ccc(NC(=O)N/N=C/c2ccc([N+](=O)[O-])cc2)cc1 |  |  |  |  | EC50 |  | <6.25 µg/mL
CCCCCCCCCCCCOCc1cn([C@H]2C[C@H](N)[C@@H](CO)O2)c(=O)[nH]c1=O |  |  | VERO Cell line | MS-115 | MIC99 |  | 20 µg/mL
CCOC(=O)c1ccc(NC(=O)CC(C(C)=O)C(=O)Nc2cccc3ccccc23)cc1 |  | 5 µg/mL |  | H37Rv | inhibition |  | 0%
Cc1c(Cl)cccc1NC(=O)N/N=C/c1ccc(N(C)C)cc1 |  |  |  |  | EC50 |  | >6.25 µg/mL
C/C=C(\C)C(=O)OC/C=C\C#CC#C/C=C\C(=O)OC |  |  |  | H37Rv | MIC |  | >100 µg/mL
Cc1cccc(Nc2nc(N)nc(N)c2N=O)c1 |  |  |  | H37Rv | MIC bound | BACTEC | >12.5 µg/mL
Cc1nc(N)c2ncn([C@@H]3O[C@H](CO)[C@@H](O)[C@H]3O)c2n1 |  |  |  | ATCC 35838 (rifampicin-resistant) | MIC |  | <1.56 µg/mL
CC(=O)OC1CC2C(C)(C)C(=O)C=CC2(C)C2CCC3(C)C(c4ccoc4)OC(=O)C4OC43C12C |  | 6.25 µg/mL |  | H37Rv | inhibition | resazurin | 43%
CN[C@H]1CCN(c2c(F)cc3c(=O)c(C(=O)O)cn4c3c2OC[C@@H]4C)C1 |  |  |  | Rifampicin-resistant (5 strains pooled) | Mean MIC |  | 9.7 µg/mL
CC(=O)Nc1ccc(NC(=O)N/N=C/c2ccccc2[N+](=O)[O-])cc1 |  |  |  |  | EC50 |  | <6.25 µg/mL
Cn1nc(-c2ccccc2)c(C(=O)/C=C/c2ccc(Cl)cc2)c(N2CCCC2)c1=O |  |  |  | H37Rv | MIC bound | BACTEC | >12.5 µg/mL
CCOC(=O)c1ccc(NC(=O)C(CC(=O)Nc2ccccc2Cl)C(C)=O)cc1 |  | 5 µg/mL |  | H37Rv | inhibition |  | 0%
COc1ccc(CC(NC(=O)OCc2ccccc2)C(=O)NC2C(CO)OC(n3cnc4c(N)ncnc43)C2O)cc1 |  |  |  | H37Rv | MIC bound | BACTEC | >12.5 µg/mL
CCOC(=O)c1ccc(NC(=O)C(CC(=O)Nc2ccc(OC)cc2)C(C)=O)cc1 |  | 30 µg/mL |  | H37Rv | inhibition |  | 0%
COc1cc(/C=C/C(=N\NS(=O)(=O)c2ccc(C)cc2)c2sc(NNC(C)=O)nc2C)ccc1O |  |  |  | H37Rv | MIC bound | resazurin | >6.25 µg/mL
CC(=O)O[C@H]1C[C@H]2[C@]3(C)CCC4C(C)(C)CCC[C@]4(C)[C@H]3C[C@@H](O)[C@]2(C)C2OC(=O)C=C21 |  |  |  | H37Rv (ATCC 27294) | EC50 | BACTEC | >12.5 µg/mL
Cc1c(CN2CCSCC2)cc(-c2ccc(Cl)cc2)n1-c1ccc(F)cc1 |  |  |  |  | MIC |  | 1 µg/mL
NC(N)=Nc1nc2ccc(Cl)cc2[nH]1 |  | 6.25 µg/mL |  | H37Rv | inhibition | resazurin | 23%
Cc1c(CN2CCN(C)CC2)cc(-c2ccccc2Cl)n1-c1ccccc1 |  |  |  |  | MIC |  | >16 µg/mL
COC(=O)C1=COC(C)C2CN3CCc4c([nH]c5cc(OC)ccc45)C3CC12.ON(O)O |  |  |  | H37Rv | MIC bound | BACTEC | >12.8 µg/mL
O=C(O)c1cn(-c2ccc([N+](=O)[O-])cc2)c2cc(N3CCCCC3)c(F)cc2c1=O |  | 6.25 µg/mL |  | H37Rv | inhibition | BACTEC | 6%
CCOC(=O)c1ccc(N2CCN(CCn3c(-c4ccc5c(c4)OCO5)nc4cc(C(=O)OCC)ccc43)CC2)c(N)c1 |  |  |  | H37Rv | MIC | resazurin | 6.219 µM
CN1CCN(c2cc3c(cc2F)c(=O)c(C(=O)O)cn3-c2ccc([N+](=O)[O-])cc2)CC1 |  | 6.25 µg/mL |  | H37Rv | inhibition | BACTEC | 0%
O=C(N=Nc1c(O)n(CO)c2ccccc12)c1ccncc1 |  |  |  | Human resistant isolate | MIC |  | 3 µg/mL
C/C=C\C#CC#C/C=C\C(=O)OC |  |  |  | H37Rv | MIC |  | 50 µg/mL
CC(C)=CCc1c(C)cc2cc3c(c(O)c2c1O)C(O)=CC(=O)C3(CC=C(C)C)C/C=C(\C)CO |  | 12.5 µg/mL |  | H37Rv | inhibition | BACTEC | 2%
CCOC(=O)c1ccc(NC(=O)C(CC(=O)Nc2ccccc2)C(C)=O)cc1 |  | 30 µg/mL |  | H37Rv | inhibition |  | 0%
COc1ccccc1-n1c(S[Si](C)(C)C)nc2c(Br)cccc2c1=O |  |  |  | H37Rv | MIC |  | ≤40 µg/mL